Reference: paper PMC5854701 (Scientific Reports, 2018)
Where “and” joins values, the source holds several entries; their conditions need not be identical. Equal entries are not always repeated. Where two headings read alike, the source gives them in different places.

Legend:
[1] = target: influenza polymerase PAC-PB1N interaction (His-tagged PA239-716 / GST-tagged PB1 1-25) (Influenza A virus, UniProt P03433); test: biochemical; format: binding
[2] = test system: influenza A virus A/WSN/33 (H1N1); test: in vitro; conditions: dog, MDCK
[3] = test system: influenza A virus A/California/07/2009 (H1N1); test: in vitro; conditions: dog, MDCK
[4] = test system: influenza A virus A/Washington/29/2009 (H1N1); test: in vitro; conditions: dog, MDCK
[5] = test system: influenza A virus A/Denmark/524/2009 (H1N1); test: in vitro; conditions: dog, MDCK
[6] = test system: influenza A virus A/Texas/04/2009 (H1N1); test: in vitro; conditions: dog, MDCK
[7] = test system: influenza A virus A/Denmark/528/2009 (H1N1); test: in vitro; conditions: dog, MDCK
[8] = test system: influenza A virus A/Switzerland/9715293/2013 (H3N2); test: in vitro; conditions: dog, MDCK

In the case of “Oseltamivir carboxylate [reference compound]”, the IC50 ([1]; read-out: PAC-PB1N ELISA IC50) is reported as over 30 µM.

`O=c1[nH]c2ccccc2n1C1CCN(C(c2ccc(-c3ccccc3)cc2)c2nnnn2-c2ccc3c(c2)OCCO3)CC1` (centres unmarked) [Compound 9 f, 1‐[1‐({[1,1′‐biphenyl]‐4‐yl}[1‐(2,3‐dihydro‐1,4‐benzodioxin‐6‐yl)‐1 H‐1,2,3,4‐tetrazol‐5‐yl]methyl)piperidin‐4‐yl]‐2,3‐dihydro‐1 H‐1,3‐benzodiazol‐2‐one] showed an IC50 ([1]; PAC-PB1N ELISA IC50) of over 30 µM.

In the case of `Cc1onc(-c2ccccc2)c1C(=O)N1CCN(c2ccc([N+](=O)[O-])cc2Cl)CC1` [Nucleozin, reference compound], the IC50 ([1]; PAC-PB1N ELISA IC50) is reported as over 30 µM.

`O=c1[nH]c2ccccc2n1C1CCN(C(c2ccccc2)c2nnnn2-c2ccc3c(c2)OCCO3)CC1` (centres unmarked) [Compound 9i, 1-(1-{[1-(2,3-dihydro‐1,4‐benzodioxin-6‐yl)‐1 H‐1,2,3,4‐tetrazol‐5‐yl](phenyl)methyl}piperidin‐4‐yl)‐2,3‐dihydro‐1 H‐1,3‐benzodiazol‐2‐one] gave an IC50 ([1]; PAC-PB1N ELISA IC50) of 13.6 ± 0.9 µM.

For `O=c1[nH]c2ccccc2n1C1CCN(C(c2ccsc2)c2nnnn2-c2ccc3c(c2)OCCO3)CC1` (centres unmarked) [Compound 9o, 1‐(1‐{[1‐(2,3‐dihydro‐1,4‐benzodioxin‐6‐yl)‐1 H‐1,2,3,4‐tetrazol‐5‐yl](thiophen‐3‐yl)methyl}piperidin‐4‐yl)‐2,3‐dihydro‐1 H‐1,3‐benzodiazol‐2‐one], the IC50 ([1]; PAC-PB1N ELISA IC50) was 9.9 ± 0.7 µM.

For `Oc1nc2ccccc2n1C1CCN(C(CCc2ccccc2)c2nnnn2-c2ccc3c(c2)OCCO3)CC1` (centres unmarked) [Compound 5, 1‐(1‐{1‐[1‐(2,3‐dihydro‐1,4‐benzodioxin‐6‐yl)‐1,2,3,4‐tetrazol‐5‐yl]‐3‐phenylpropyl}piperidin‐4‐ yl)‐3 H‐1,3‐benzodiazol‐2‐one], the selectivity ratio [2] was 14.5, the selectivity ratio [3] was 3.9 and the selectivity ratio [4] was 10.9. For the same compound, the IC50 ([1]; PAC-PB1N ELISA IC50) was 4.3 ± 0.1 µM, the selectivity ratio [5] was 9.7 and the selectivity ratio [6] was 5.

In the case of `c1ccc(CCC(c2nnnn2-c2ccc3c(c2)OCCO3)N2CCC(c3c[nH]c4ccccc34)CC2)cc1` (centres unmarked) [Compound 9c, 3‐(1‐{1‐[1‐(2,3‐dihydro‐1,4‐benzodioxin‐6‐yl)‐1 H‐1,2,3,4‐tetrazol‐5‐yl]‐3‐phenylpropyl}piperidin‐4‐yl)‐1 H‐indole], the IC50 ([1]; PAC-PB1N ELISA IC50) is reported as > 26.9 µM and 26.9 µM.

`Oc1nc2ccccc2n1C1CCN(C(c2cccs2)c2nnnn2-c2ccc3c(c2)OCCO3)CC1` (centres unmarked) [Compound 9 m, 1‐(1‐{[1‐(2,3‐dihydro‐1,4‐benzodioxin‐6‐yl)‐1 H‐1,2,3,4‐tetrazol‐5‐yl](thiophen‐2‐yl)methyl}piperidin‐4‐yl)‐2,3‐dihydro‐1 H‐1,3‐benzodiazol‐2‐one] gave an IC50 ([1]; PAC-PB1N ELISA IC50) of 15.1 ± 1.2 µM.

Work on `C[C@@H](c1ccccc1)n1nnnc1[C@H](c1ccsc1)N1CCC(n2c(=O)[nH]c3ccccc32)CC1` [Compound 12a, 1‐{1‐[(S)‐{1‐[(1 S)‐1‐phenylethyl]‐1 H‐1,2,3,4‐tetrazol‐5‐yl}(thiophen‐3‐yl)methyl]piperidin‐4‐yl}‐2,3‐dihydro‐1 H‐1,3‐benzodiazol‐2‐one] yielded a selectivity ratio [7] of over 167, a selectivity ratio [2] of over 214 and a selectivity ratio [3] of over 115. It also gave a selectivity ratio [4] of over 167, a selectivity ratio [8] of over 107 and an IC50 ([1]; PAC-PB1N ELISA IC50) of 7.6 ± 1.4 µM. It also gave a selectivity ratio [5] of over 188 and a selectivity ratio [6] of over 136.

In the case of `C[C@@H](c1ccccc1)n1nnnc1[C@@H](c1ccsc1)N1CCC(n2c(=O)[nH]c3ccccc32)CC1` [Compound 12b, 1‐{1‐[(R)‐{1‐[(1 S)‐1‐phenylethyl]‐1 H‐1,2,3,4‐tetrazol‐5‐yl}(thiophen‐3‐yl)methyl]piperidin‐4‐yl}‐2,3‐dihydro‐1 H‐1,3‐benzodiazol‐2‐one], the IC50 ([1]; PAC-PB1N ELISA IC50) is reported as > 26.9 µM and 37 µM.

With `COc1cccc(C(c2nnnn2-c2ccc3c(c2)OCCO3)N2CCC(n3c(O)nc4ccccc43)CC2)c1OC` (centres unmarked) [Compound 9k, 1‐(1‐{[1‐(2,3‐dihydro‐1,4‐benzodioxin‐6‐yl)‐1 H‐1,2,3,4‐tetrazol‐5‐yl](2,3‐dimethoxyphenyl)methyl}piperidin‐4‐yl)‐2,3‐dihydro‐1 H‐1,3‐benzodiazol‐2‐one] the IC50 ([1]; PAC-PB1N ELISA IC50) was 7 ± 0.6 µM.
